Data as given in PMC5693944.

Target: MucR (Brucella abortus 2308) (UniProt Q2YMR3)
Test: EMSA
Conditions: no netropsin; recombinant protein; residues 1-142

GGCGCCGAAATAACGGAGCG (double strand) [Core2]
binding result: binds

Construct, isoform or probe ends are uncertain for at least one entry. At least one verdict rests on a figure or table, not on a statement of the authors.
